Results: patent US9480729B2, “Enzymes for inhibiting growth of biofilms and degrading same” (C5-6 Technologies, Inc., priority 2012, dated 2016)

B1: Dtur: Dictyoglomus turgidum AmyA enzyme (gene Dtur_0675) represented by SEQ ID NO:15 (protein, listed as Dictyoglomus turgidum)
chain: DIPLNIYDPKVQKVERPLYLAIIWHNHQPLYYDPDQNINILPWVRMHAIKDYYDMAYILKNYPQIKANFNMVPSLLYQLELYTKKGIKDKYLILTEKPADQLTIEDKEFILRRFFDVNWDRIIKKFPRYWELLNKRGQSVDDVVIAKAIQKFTTQDFRDLQVWFNLAWFDPDFQKYDKDLSRLIEKGKNFTEEDKKVVINKQYEIMSKIIPLYAELQKTKQIEVTTTPFFHPIMPLLVDIKSAKIAVQDIALPNATINYSDDTSAQLSMAVNYYKKFFKDTPKGLWPSEGSVSQDIIPIVGNSGFLWMASDEDVLSKSLNTPILRDSRGNVTNPDVLYQPYIVEEQGKKVYVVFRDKNLSDKIGFVYSGMKGENAAKDFVNRLENIYERVKDDKKSYLVTVILDGENCWEYYENDGKEFLNTLYKLLTDSPYIETVRLTDYLNKFPPTKKIERLHSGSWIDGTFLTWVGEQEENKAWEILDKARTELIYETVKQKKTISPVLNPDLLRNNIEKAWFELYAAEGSDWFWWYGDDQDSTNDLAFDELFRKHLINVYKLIGKEVPQELFLPIVKIGEEKPVQSLQAKFTPKIDGLINPEDEWKNAAIYLAKKGTGLSTKPSDFIEKVYLGLDNDNVYFLIESKTNLKDYLGKPYFLAVYFSNPNQKEYNLYPRKGSQTLGYGIAYELLIDFSKISSLGEVDAILNQATGNNSWRQQSTLKAGVSEKYIEVGVPFKEIKVQGREQIAMNVIFGKEEPIDVVPYYVPIYLTVPEKKLEITYFSIDDPTGDDYGWGKVVYPTAPVFKPGVFDIIHVEMGKSKDDIVFKIKIRGDLENPWGSPTGVSVQTIDIYINDGKESTYYYQALPGRQANIPEGWNKAIWAEGWIQELIIPTLDEKGKVQLKEIKGVVQLSTDPTERTIIISVPEKYLGPVTPDWKILVILCGQEGYPRPGSWRVREVEEEAKQWRFGGGDDFYGDPNIIDMIVPPGMKQEDILSKWVSSEDEEENVYVELPLIPLRVLMSQ
B2: P042: Clostridium thermocellum CelO enzyme (gene Cthe_2147) represented by SEQ ID NO:6; cellulase (protein, listed as Clostridium thermocellum)
chain: DDTSEEPALEGLSIHYMDGTLDVKYQSMRPYIIIHNNSGMDVDMADLRVRYYYEKEGVTEEVLTCFYTAIGADKIFAEFHPELGYAEIGFTSDAGIIKSGGNSGQLQLVLKKISNGYYDQSNDYSYDPSYTDYAEYDKITLYYKGKLVWGKEGPPPPPEPTPPPNNDDWLHVEGNLIKDAQGNTVYLTGINWFGFETDGANGFYGLNKCNLEDSLDLMAKLGFNILRIPISAEIILQWKNGERVETSFVNTYENPRLDGLSSLEILDYTINHMKKNGMKAMLDMHSSTKDSYQENLWYNKDITMEEFIEAWKWIVERYKDDDTVIAVDLKNEPHGKYSGPNIAKWDDSDDPNNWKRAAEIIAEEILAINPNLLIVVEGVEAYPMEGYDYTNCGEFTTYCNWWGGNLRGVADHPVVISAPDKLVYSVHDYGPDIYMQPWFKKDFDINTLYEECWYPNWYYIVEQNIAPMLIGEWGGKLINENNRKWLECLATFISEKKLHHTFWAFNPNSADTGGLMLEDWKTVDEEKYAIIEPTLWKKGLDHVIPLGGITEDTFKYGDVNGDFAVNSNDLTLIKRYVLKNIDEFPSSHGLKAADVDGDEKITSSDAALVKRYVLRAITSFPVEENQNE
B3: Aaci: Alicyclobacillus acidocaldarius alpha-amylase represented by SEQ ID NO:24 (protein, listed as Alicyclobacillus acidocaldarius)
chain: FENTRSVGTERVLAATAADSTNASPPTGASAGGGTAGETYSNAVQIVSGNGFRAGNGATVVLAVNGLNLNPSSFKVVVSNSLNGVIDVTSDSVLTGPNSIALHLPAGDDGLGAGTYTVTVESGGDSVSTPSGQGLQVMPYTTADTIQWDGIYTSDGAMYVSDPNPSPGQEVTISLRAYSGNLTKVILNCWDTAQNKGFQVEMSPGRTFGPYQLWSATIPASNGGTIYYRFDIYDGTSFACLSGDGLHTSDDINNNFPLPVGTVTLSTLQANPGDTVTVSDPVGDFAGSQDQPNHTVIRFVNSSGETAATVNGTNASWNSVQFTVPQSLPNGLYRVEIDTVAKDADGVVNVELDRSAELIVGPLPAWMQAYAHDSFQAFYRSPFGAVSTGTPITLRLRAPLSVKSATLRLWGAADQSGEIDLPMQKLQMSGDELAQQTGVQDINDYTWWTVTIPAADVTTPGTMWYQFVTETDTGQVVYYDDNGAQLEGPGQVGLSSDGPSYQISVYERGFQTPDWLKHAVIYEIMPDRFYNGNIATEENPNTQKGIYVGADGTESLGPIQFHENWDSPPYDPNIPPLSDPKIASLRGNGQWNIDFFGGDLQGIEDKLDYLKSLGVNTLYLMPVFEAESNHKYDTADYFKIDPGFGTQQDWLNLVQAAHAKGFHIILDGVFEDTGSDSVYFNKFGNFHSNGAWQAYLKNQPSLSPYYSWYVWTGNTSNPYDSWFQIDTLPLTDTSNPAYQRFVYGSDNSVARVWIREGADGWRLDSADNGNFNTAWWGGFRQAVKSIDPNAAIIGEIWDNATNDNGTDWLTGSTFDSVMNYQFRNAVIDFFRGTYNDGNVQHHAVDAAGFNQELMRLYSEYPLQSFYSMMNLVDSQDTMRILTILENAPQPGDLSALQQDEYRPSPAAEQLGIERLKLVSDFQFSFPGDPTIFYGDEAGLTGYSDPLNRRTYPWDNQNLDLLNHYRKLGAIRNANPVLQTGDFTPLYAQGMVYAFARTIRNGRDVFGVPAEDATAIVAINNQNQAITVTIPTDGTVADGSTMLDELNNQWYKVQNGGITLTLQSYQGAILVTPSDAPMAYLQEEDSQNEIAWTPVQGAIGYRVWRQNPNGQWVPFGPVLPATDLSVTVERDAYAQTFAVQALFSASDHAQSPVSAPKTVSLPVDVPAVRLSQPIVSGRVVGDRAMVSITPVSGATQYVIYQRQGDGSYAPVATVSTSGDSAAIGEVPAQGPANSPHATIRVTVPVPAGFSSVTYRVAAQNEDGQAVTNPLTLSLSKK
B4: P130: Clostridium thermocellum ManA enzyme (gene Cthe_0032) represented by SEQ ID NO:3; beta-mannanase (protein, listed as Clostridium thermocellum)
chain: AYSLPVDVEAEDCTLGNGAVVTTNVYGTQYPGYSGDGFVWVANSGTITLEVTIPENGMYELSTRCWMYLGKEDETRMQVISINGKSHSNYFIPNKGQWIDYSFGFFYLEAGKATIEIGSSGSWGFILYDKIYFDHADMPDHIIDPTPCDPNATPETRALMKYLTSVYGKYVISGQQEIYGNGNDGNYELEFDYIYEKTGKYPAIRGFDFMNYNPLYGWEDGTTARIIDWVKNRGGIATACWHINIPRDFASYKLGEPVDWTNCTYKPTSSFNTANCLDETTKEHAYLMMAIEDLAEQLLILQEQNIPILFRPFHEAEGYNNTDGSGAWFWWGSAGAEVYKELWKLLYKTLTEKYGIHNLIWEVNLYTYANSYEWYPGDEYVDIIGYDKYEGSPNTWGTSAASSLFLTLVNYTNDTKMVALTENDVIPDIQNIVNEEAWWLYFCPWYGDFLMSPRYNDPVLLNTIYNSEYVITLDELPENLYEYDGEIPDINYGDLNNDGNINSTDYMILKKYILKVLERMNVPEKAADLNGDGSINSTDLTILKRFIMKAITKFPVTQK
B5: P045: Clostridium thermocellum CelK enzyme (gene Cthe_0412) represented by SEQ ID NO:9; cellulase (protein, listed as Clostridium thermocellum)
chain: LEDKSPKLPDYKNDLLYERTFDEGLCFPWHTCEDSGGKCDFAVVDVPGEPGNKAFRLTVIDKGQNKWSVQMRHRGITLEQGHTYTVRFTIWSDKSCRVYAKIGQMGEPYTEYWNNNWNPFNLTPGQKLTVEQNFTMNYPTDDTCEFTFHLGGELAAGTPYYVYLDDVSLYDPRFVKPVEYVLPQPDVRVNQVGYLPFAKKYATVVSSSTSPLKWQLLNSANQVVLEGNTIPKGLDKDSQDYVHWIDFSNFKTEGKGYYFKLPTVNSDTNYSHPFDISADIYSKMKFDALAFFYHKRSGIPIEMPYAGGEQWTRPAGHIGVAPNKGDTNVPTWPQDDEYAGRPQKYYTKDVTGGWYDAGDHGKYVVNGGIAVWTLMNMYERAKIRGIANQGAYKDGGMNIPERNNGYPDILDEARWEIEFFKKMQVTEKEDPSIAGMVHHKIHDFRWTALGMLPHEDPQPRYLRPVSTAATLNFAATLAQSARLWKDYDPTFAADCLEKAEIAWQAALKHPDIYAEYTPGSGGPGGGPYNDDYVGDEFYWAACELYVTTGKDEYKNYLMNSPHYLEMPAKMGENGGANGEDNGLWGCFTWGTTQGLGTITLALVENGLPSADIQKARNNIAKAADKWLENIEEQGYRLPIKQAEDERGGYPWGSNSFILNQMIVMGYAYDFTGNSKYLDGMQDGMSYLLGRNGLDQSYVTGYGERPLQNPHDRFWTPQTSKKFPAPPPGIIAGGPNSRFEDPTITAAVKKDTPPQKCYIDHTDSWSTNEITINWNAPFAWVTAYLDEIDLITPPGGVDPEEPEVIYGDCNGDGKVNSTDAVALKRYILRSGISINTDNADVNADGRVNSTDLAILKRYILKEIDVLPHK
B6: Bst: Bacillus stearothermophilus AmyS enzyme (UniProt P06279) represented by SEQ ID NO:18 (protein, listed as Bacillus stearothermophilus)
chain: AAPFNGTMMQYFEWYLPDDGTLWTKVANEANNLSSLGITALWLPPAYKGTSRSDVGYGVYDLYDLGEFNQKGAVRTKYGTKAQYLQAIQAAHAAGMQVYADVVFDHKGGADGTEWVDAVEVNPSDRNQEISGTYQIQAWTKFDFPGRGNTYSSFKWRWYHFDGVDWDESRKLSRIYKFRGIGKAWDWEVDTENGNYDYLMYADLDMDHPEVVTELKSWGKWYVNTTNIDGFRLDAVKHIKFSFFPDWLSDVRSQTGKPLFTVGEYWSYDINKLHNYIMKTNGTMSLFDAPLHNKFYTASKSGGTFDMRTLMTNTLMKDQPTLAVTFVDNHDTEPGQALQSWVDPWFKPLAYAFILTRQEGYPCVFYGDYYGIPQYNIPSLKSKIDPLLIARRDYAYGTQHDYLDHSDIIGWTREGVTEKPGSGLAALITDGPGGSKWMYVGKQHAGKVFYDLTGNRSDTVTINSDGWGEFKVNGGSVSVWVPRKTTVSTIAWSITTRPWTDEFVRWTEPRLVAWP

Columns and labels:
P. aeruginosa PA14 = assay: Biofilm inhibition assay on abiotic plastic surface (crystal violet, 550 nm); settings: enzyme ~0.02 mg/ml, added at start, 6-8 hrs, compared to PBS buffer control
[1] = test system: Pseudomonas aeruginosa biofilm; assay: Sugar release / solubilization of dehydrated P. aeruginosa biofilm by carbohydrate-active enzymes; settings: for percentage of biofilm carbohydrate solubilized: carbohydrate released by sonication set at 100%, enzyme blank used; for digestion (solubilization, hydrolysis) of the Pseudomonas aeruginosa biofilm, sugar release: individual enzymes, dehydrated biofilm in PBS, 37° C., 19 hr / overnight

| Molecule | inhibition of biofilm formation (P. aeruginosa PA14) | percentage of biofilm carbohydrate solubilized [1] | digestion (solubilization, hydrolysis) of the Pseudomonas aeruginosa biofilm, sugar release [1] |
| --- | --- | --- | --- |
| B1 | effective in inhibiting the formation of biofilm |  |  |
| B2 | effectively inhibited | approximately 50% | significantly greater digestion of the biofilm than the other fifteen enzymes |
| B3 | effective in inhibiting the formation of biofilm |  |  |
| B4 | effectively inhibited | approximately 20% | significantly greater digestion of the biofilm than the other fifteen enzymes |
| B5 | effectively inhibited | approximately 50% | significantly greater digestion of the biofilm than the other fifteen enzymes |
| B6 | effective in inhibiting the formation of biofilm |  |  |
